Results taken from PubChem BioAssay AID602399 (Sanford-Burnham Center for Chemical Genomics, 2012).
This is a selection; strong and weak results do not stand in their true shares. Active and inactive are the calls of the source. No stated cut-off is given here; in the data, active means inhibition above about 26%; inactive means the rest.

Tested on: Nicotinate-nucleotide adenylyltransferase NadD (Staphylococcus aureus N315)
Assay: inhibitors of S. aureus NadD, primary screen, biochemical, colorimetric, uHTS (AID 602399)
Settings: purified NadD enzyme, colorimetric absorbance read-out; at 20 µM; stronger effect = higher value

**Q.** With `COC(=O)C1(C)COP(=O)(N2CCCC2)OC1` (configuration not stated) as the compound, how does the inhibition read?
**A.** The inhibition was inactive: 5.49%.

**Q.** `COP1(=S)c2c(C)nn(CCC#N)c2N=C(c2ccc(F)cc2)N1C` (configuration not stated) was tested. Which inhibition did it give?
**A.** Its inhibition is inactive: -2.75%.

**Q.** For `O=C(Nc1ccncc1[N+](=O)[O-])c1ccc([N+](=O)[O-])cc1[N+](=O)[O-]`, which inhibition is on record?
**A.** The inhibition was inactive: -0.18%.

**Q.** Which inhibition does the source give for `O=C(COc1ccccc1)OC1CN2CCC1CC2` (configuration not stated) here?
**A.** Its inhibition is inactive: -3.9%.

**Q.** Which inhibition does the source give for `O=C(O)C(=O)c1ccc(N(CCCl)CCCl)cc1` here?
**A.** The inhibition was inactive: -0.152%.

**Q.** Which inhibition does the source give for `COc1ccc(N/C(=N/P(=O)(N2CCOCC2)N2CCOCC2)N2CCOCC2)cc1` here?
**A.** Its inhibition is inactive: -6.12%.

**Q.** With `O=[N+]([O-])c1cc(Oc2ccc([N+](=O)[O-])cc2C(F)(F)F)cc([N+](=O)[O-])c1` as the compound, how does the inhibition read?
**A.** Its inhibition is inactive: -1.78%.

**Q.** For `Cc1cc(=O)[nH]c(N[N+](=O)[O-])n1`, which inhibition is on record?
**A.** The inhibition was inactive: 2.22%.

**Q.** For `O=C(OC1CN2CCC1CC2)C12CC3CC(CC(C3)C1)C2` (configuration not stated), which inhibition is on record?
**A.** The inhibition was inactive: -4.05%.

**Q.** `Cc1c2c(nc3ccccc13)SC(C(Cl)Cl)C2` (configuration not stated) was tested. Which inhibition did it give?
**A.** The inhibition was inactive: 2.03%.

**Q.** How did the inhibition turn out when `COc1cc(I)ccc1[As](=O)(O)O` was run?
**A.** Its inhibition is inactive: -3.57%.

**Q.** How did the inhibition turn out when `COc1ccc2nc(NP(=O)(c3ccccc3)c3ccccc3)sc2c1` was run?
**A.** Its inhibition is inactive: 2.2%.

**Q.** Which inhibition does the source give for `O=P1(N(CCCl)CCCl)Nc2ccccc2N1` here?
**A.** Its inhibition is inactive: -23.6%.

**Q.** With `O=P1(N(CCCl)CCCl)OCCCN1CCCl` (configuration not stated) as the compound, how does the inhibition read?
**A.** Its inhibition is inactive: 0.972%.

**Q.** For `COC(=O)C1(C)COP(=O)(N2CCCCCC2)OC1` (configuration not stated), which inhibition is on record?
**A.** Its inhibition is inactive: -1.78%.

**Q.** With `CC(C)c1ccc(OP(=O)(Nc2ccccn2)Oc2ccccc2F)cc1` (configuration not stated) as the compound, how does the inhibition read?
**A.** Its inhibition is inactive: 1.55%.

**Q.** Which inhibition does the source give for `ClCCSc1nnc(-c2cccnc2)o1` here?
**A.** The inhibition was inactive: 0.738%.

**Q.** For `O=[N+]([O-])c1cc([N+](=O)[O-])c(-c2ccn[nH]2)s1`, which inhibition is on record?
**A.** Its inhibition is inactive: -3.42%.

**Q.** With `CC(C)NC(=O)NP(=O)(Oc1ccccc1)Oc1ccccc1` as the compound, how does the inhibition read?
**A.** The inhibition was inactive: -0.503%.

**Q.** How did the inhibition turn out when `O=C(OC1CN2CCC1CC2)c1cccc2[nH]cnc12` (configuration not stated) was run?
**A.** The inhibition was inactive: -6.88%.

**Q.** For `CCN(CC)C(=S)SC(NC=O)C(Cl)(Cl)Cl` (configuration not stated), which inhibition is on record?
**A.** Its inhibition is inactive: 4.52%.

**Q.** With `O=[N+]([O-])c1ccc(-c2cc([N+](=O)[O-])c(O)c([N+](=O)[O-])c2)cc1` as the compound, how does the inhibition read?
**A.** Its inhibition is inactive: 3.07%.

**Q.** How did the inhibition turn out when `COc1cc(C(=O)NCC2(N3CCOCC3)CCCCC2)ccc1OCC(C)C` was run?
**A.** Its inhibition is inactive: -7.01%.

**Q.** With `O=[As](O)(c1ccc(O)cc1)c1ccccc1O` as the compound, how does the inhibition read?
**A.** Its inhibition is inactive: -0.609%.

**Q.** For `C[As](=O)(O)c1cccc(C(=O)O)c1`, which inhibition is on record?
**A.** Its inhibition is inactive: -3.82%.

**Q.** `Cc1ccc2nc3c(c(C)c2c1)CC(C(Cl)Cl)S3` (configuration not stated) was tested. Which inhibition did it give?
**A.** Its inhibition is inactive: 9.05%.

**Q.** With `[N-]=[N+]=NC1CCCCC1NC(=O)c1cc([N+](=O)[O-])cc([N+](=O)[O-])c1` (configuration not stated) as the compound, how does the inhibition read?
**A.** The inhibition was inactive: -0.652%.

**Q.** Which inhibition does the source give for `Cc1ccc(OP(=O)(Nc2ccc([N+](=O)[O-])cn2)Oc2ccc(C)cc2)cc1` here?
**A.** Its inhibition is inactive: -4.14%.

**Q.** `NC(=O)Nc1ccc([As](=O)(O)O)cc1` was tested. Which inhibition did it give?
**A.** The inhibition was inactive: -0.758%.

**Q.** With `CN(C(=O)Cc1ccc(Cl)c(Cl)c1)[C@H]1CC[C@@]2(CCCO2)C[C@@H]1N1CCCC1` as the compound, how does the inhibition read?
**A.** Its inhibition is inactive: -4.75%.

**Q.** How did the inhibition turn out when `O=[N+]([O-])c1ccc2c(c1)nnn2O` was run?
**A.** Its inhibition is inactive: -9.52%.

**Q.** `CN(C)C(=O)c1cc([N+](=O)[O-])cc2c1-c1c(cc([N+](=O)[O-])cc1[N+](=O)[O-])C2=O` was tested. Which inhibition did it give?
**A.** Its inhibition is inactive: -0.0767%.

**Q.** For `CN(C(=O)Cc1ccccc1)[C@@H]1CC[C@]2(CCCO2)C[C@H]1N1CCCC1`, which inhibition is on record?
**A.** The inhibition was inactive: -4.61%.

**Q.** How did the inhibition turn out when `CCOP1(=S)c2c(C)nn(CCC#N)c2N=C(c2ccc(F)cc2)N1C` (configuration not stated) was run?
**A.** Its inhibition is inactive: 0.244%.

**Q.** For `N#CCCN(C(=O)COC(=O)C(O)(c1ccccc1)c1ccccc1)c1ccc(F)cc1`, which inhibition is on record?
**A.** The inhibition was inactive: 1.3%.

**Q.** With `CS(=O)(=O)c1cc([N+](=O)[O-])c2no[n+]([O-])c2c1` as the compound, how does the inhibition read?
**A.** The inhibition was inactive: 7.82%.

**Q.** Which inhibition does the source give for `O=P(Nc1nccs1)(Oc1ccccc1)Oc1ccccc1` here?
**A.** The inhibition was inactive: -3.92%.

**Q.** With `O=P(Nc1nccs1)(c1ccccc1)c1nc2ccccc2s1` (configuration not stated) as the compound, how does the inhibition read?
**A.** Its inhibition is inactive: 12.6%.

**Q.** `CCOP1(=S)c2c(C)nn(CCC#N)c2N=C(c2ccccc2F)N1C` (configuration not stated) was tested. Which inhibition did it give?
**A.** The inhibition was inactive: -5.96%.

**Q.** For `Nc1ccccc1[As](=O)(O)c1ccccc1`, which inhibition is on record?
**A.** Its inhibition is inactive: -6.37%.

**Q.** For `O=C(O)COc1ccc([As](=O)(O)O)cc1[N+](=O)[O-]`, which inhibition is on record?
**A.** Its inhibition is inactive: -3.93%.

**Q.** Which inhibition does the source give for `CCCOP(=S)(Nc1nc(N)cc(=O)[nH]1)OCCC` here?
**A.** Its inhibition is inactive: 2.41%.

**Q.** For `Nc1cccc2c([As](=O)(O)O)cccc12`, which inhibition is on record?
**A.** Its inhibition is inactive: -0.24%.

**Q.** Which inhibition does the source give for `Cc1ccc(NCCc2c([N+](=O)[O-])cc([N+](=O)[O-])cc2[N+](=O)[O-])cc1` here?
**A.** The inhibition was inactive: 13.2%.

**Q.** `CCOP(=O)(Nc1cccc2ccccc12)OCC` was tested. Which inhibition did it give?
**A.** The inhibition was inactive: -0.472%.

**Q.** With `COc1cc(C2NCCC3(OCCO3)C2(C)C)cc(OC)c1OC` (configuration not stated) as the compound, how does the inhibition read?
**A.** The inhibition was inactive: -5.23%.

**Q.** With `CS(=O)(=O)c1ccc(Cl)c(NC(=O)COC(=O)C(O)(c2ccccc2)c2ccccc2)c1` as the compound, how does the inhibition read?
**A.** The inhibition was inactive: -7.49%.

**Q.** `O=[As](O)(O)c1cccnc1` was tested. Which inhibition did it give?
**A.** The inhibition was inactive: -7.91%.

**Q.** How did the inhibition turn out when `COc1cc(C(=O)NCC2(N3CCOCC3)CCCCC2)cc(Cl)c1OC(C)C` was run?
**A.** Its inhibition is inactive: 3.56%.

**Q.** `O=C(OC1CN2CCC1CC2)c1ccc(Cl)cc1` (configuration not stated) was tested. Which inhibition did it give?
**A.** The inhibition was inactive: -1.58%.

**Q.** How did the inhibition turn out when `Cc1cccc(OCC(=O)OC2CN3CCC2CC3)c1` (configuration not stated) was run?
**A.** The inhibition was inactive: -3.37%.

**Q.** With `O=[As](O)(c1cccc(O)c1)c1cccc(O)c1` as the compound, how does the inhibition read?
**A.** Its inhibition is inactive: -9.42%.

**Q.** For `COc1ccccc1CNC(=O)COC(=O)C(O)(c1ccccc1)c1ccccc1`, which inhibition is on record?
**A.** Its inhibition is inactive: -4.97%.

**Q.** For `CC1(CBr)Cn2c(nc3ccccc3c2=O)S1` (configuration not stated), which inhibition is on record?
**A.** Its inhibition is inactive: -1.09%.

**Q.** Which inhibition does the source give for `CC(C)/C=N\N=C(\N)N[N+](=O)[O-]` here?
**A.** The inhibition was inactive: -5.46%.

**Q.** Which inhibition does the source give for `CN(C(=O)Cc1ccc(Cl)c(Cl)c1)[C@@H]1CCCC[C@H]1N1CCCC1` here?
**A.** Its inhibition is inactive: -0.704%.

**Q.** Which inhibition does the source give for `CCOP(=O)(Nc1ccc(C)cn1)OCC` here?
**A.** The inhibition was inactive: -5.12%.

**Q.** How did the inhibition turn out when `CN(CCCl)Cc1cc(Cl)c(NC2=NCCN2)c(Cl)c1` was run?
**A.** Its inhibition is inactive: -2.11%.

**Q.** With `CCOP(=O)(NC(=NC(C)c1ccccc1)NC(C)c1ccccc1)OCC` (configuration not stated) as the compound, how does the inhibition read?
**A.** Its inhibition is inactive: -5.21%.

**Q.** For `O=P1(Nc2ccccn2)COc2ccccc2OC1`, which inhibition is on record?
**A.** The inhibition was inactive: -3.38%.

**Q.** Which inhibition does the source give for `CCC1=CC2Cc3nc4ccc(Cl)cc4c(N)c3C(C1)C2` (configuration not stated) here?
**A.** Its inhibition is inactive: -6.36%.

**Q.** `CC(C)(C)C(=O)NC(Sc1ncccn1)C(Cl)(Cl)Cl` (configuration not stated) was tested. Which inhibition did it give?
**A.** Its inhibition is inactive: -1.48%.

**Q.** With `O=P1(N(CCCl)CCCl)NCCC(C(F)(F)F)O1` (configuration not stated) as the compound, how does the inhibition read?
**A.** Its inhibition is inactive: -1.7%.

**Q.** How did the inhibition turn out when `Clc1n[nH]nc1-c1nn[nH][15n]1` was run?
**A.** The inhibition was inactive: -3.03%.

**Q.** How did the inhibition turn out when `O=P1(Nc2ncccn2)COc2ccccc2OC1` was run?
**A.** Its inhibition is inactive: -1.45%.

**Q.** Which inhibition does the source give for `Cc1ccc(S(=O)(=O)N(CCCN)CCCc2c(C)nc(N)[nH]c2=O)cc1` here?
**A.** The inhibition was inactive: 0.0819%.

**Q.** With `O=[As](O)(c1cccs1)c1cccs1` as the compound, how does the inhibition read?
**A.** Its inhibition is inactive: -8.57%.

**Q.** With `Cc1ccc(OCC(=O)OC2CN3CCC2CC3)cc1` (configuration not stated) as the compound, how does the inhibition read?
**A.** Its inhibition is inactive: -3.87%.

**Q.** Which inhibition does the source give for `O=P1(Nc2ccc(Br)cn2)COc2ccccc2OC1` here?
**A.** Its inhibition is inactive: -1.07%.

**Q.** `NS(=O)(=O)c1cccc(NC(=O)COC(=O)C(O)(c2ccccc2)c2ccccc2)c1` was tested. Which inhibition did it give?
**A.** The inhibition was inactive: -3.5%.

**Q.** With `Nc1cccc([As](=O)(O)c2ccccc2)c1` as the compound, how does the inhibition read?
**A.** Its inhibition is inactive: -5.83%.

**Q.** `CC1CCC(C(C)C)C(OP(=O)(Nc2ccccn2)c2ccccc2)C1` (configuration not stated) was tested. Which inhibition did it give?
**A.** Its inhibition is inactive: -3.5%.

**Q.** How did the inhibition turn out when `Cc1ccc(C(=O)OC2CN3CCC2CC3)cc1` (configuration not stated) was run?
**A.** The inhibition was inactive: -7.32%.

**Q.** How did the inhibition turn out when `Cc1nn(-c2ccccc2)c2c1P(=O)(N1CCOCC1)N(C)C(c1ccccc1)=N2` (configuration not stated) was run?
**A.** Its inhibition is inactive: -0.439%.

**Q.** For `CCCC1OP(=O)(Nc2ccccc2)OCC1CC` (configuration not stated), which inhibition is on record?
**A.** Its inhibition is inactive: 1.3%.

**Q.** With `O=C(/C=C/c1ccccc1)OC1CN2CCC1CC2` (configuration not stated) as the compound, how does the inhibition read?
**A.** Its inhibition is inactive: 0.0819%.

**Q.** Which inhibition does the source give for `CN(C)C1(CNC(=O)c2ccc(S(C)(=O)=O)cc2)CCCCC1` here?
**A.** The inhibition was inactive: -1.03%.
